Pooled drug test results. Numbers come from NIAID ChemDB, via PubChem.

Shared fields: enzyme or target tests; species: HIV-1; protein: Protease; endpoint: inhibition

Percent inhibition refers to the dose given; in toxicity tests it is the harm to the cells. Neighbouring rows are from separate reports.

structure	dose	result
CC(C)CN(C[C@@H](O)[C@H](Cc1ccccc1)NC(=O)OCc1ccccc1)S(C)(=O)=O	10 µM	89%
CC[C@H](C)[C@H](NC(=O)[C@H](Cc1ccccc1)NCC(O)[C@H](Cc1ccccc1)NC(=O)OC(C)(C)C)C(=O)N[C@@H](Cc1ccccc1)C(=O)OC	10 µM	64%
CC(C)(C)OC(=O)N1C2C3(CO)C(c4ccccc4)C4(CO)C1C1(CO)C(c5ccccc5)C2(CO)C3N(C(=O)OC(C)(C)C)C41	25 µM	49%
CC[C@H](C)[C@H](NC(=O)C[C@H](O)[C@H](Cc1ccccc1)NC(=O)OC(C)(C)C)C(=O)N[C@@H](Cc1ccccc1)C(=O)OC	10 µM	71%
CC(C)(C)NC(=O)[C@@H]1C=C(c2ccccc2)CN1C(=O)[C@@H](O)[C@H](Cc1ccccc1)NC(=O)[C@H](CC(N)=O)NC(=O)OCc1ccccc1	0.05 µM	50.2%
CC[C@H](C)[C@H](NC(=O)[C@H](Cc1ccccc1)NCC(O)[C@H](Cc1ccccc1)NC(=O)OCc1ccccc1)C(=O)N[C@@H](Cc1ccccc1)C(=O)OC	10 µM	67%
COC(C)[C@H](NC(=O)COc1cccc2ccccc12)C(=O)N[C@@H](Cc1ccccc1)[C@H](O)C(=O)N1CSC[C@H]1C(=O)NC(C)(C)C	0.05 µM	94.3%
COc1ccc(C2C3(CO)C4N(C(=O)Oc5ccccc5)C5C2(CO)C2N(C(=O)Oc6ccccc6)C3C4(CO)C(c3ccc(OC)cc3)C52CO)cc1	50 µM	18%
Cc1cn([C@@H]2C[C@@H](N=[N+]=[N-])[C@H](COC(=O)CC(C)(C)CC(=O)N[C@@H](Cc3ccccc3)[C@H](O)C(=O)N3CSC[C@H]3C(=O)NC(C)(C)C)O2)c(=O)[nH]c1=O	5 µM	12%
CNC(=O)[C@@H](NC(=O)[C@@H](CSC[C@@H](Cc1ccccc1)C(=O)N[C@H](C(=O)NC)C(C)C)Cc1ccccc1)C(C)C	10 µM	87%
CC(C)(C)NC(=O)[C@@H]1CCCN1C(=O)[C@@H](O)[C@H](CC1CCCCC1)NC(=O)[C@H](CS(C)(=O)=O)NC(=O)OCc1cccc2ccccc12	5 µM	98.5%
O=C(NC(CO)c1ccccc1)[C@@H](CSC[C@@H](Cc1ccccc1)C(=O)N[C@H](CO)c1ccccc1)Cc1ccccc1	10 µM	41%
CC[C@@H](C)[C@H](NC(=O)[C@@H]1CCCN1C(=O)[C@@H](O)[C@H](Cc1ccccc1)NC(=O)[C@H](CCC(N)=O)NC(=O)CCc1ccccc1)C(=O)N[C@H](C(N)=O)C(C)C	5 µM	79.4%
CC(=O)NC(C(=O)NC[C@H]1O[C@@H](Oc2ccccc2)[C@H](O)[C@@H](OCc2ccccc2)[C@@H]1OCC(C)C)C(C)C	100 µM	16%
CC(C)(C)NC(=O)[C@@H]1CSCN1C(=O)[C@@H](O)[C@H](Cc1ccccc1)NC(=O)CCCC(=O)O	5 µM	82%
CO[C@H]1[C@H](OCc2ccccc2)[C@@H](O)[C@H](Oc2ccccc2)O[C@@H]1CNC(=O)[C@@H](NC(=O)OC(C)(C)C)C(C)C	100 µM	11%
CC(C)C[C@@H](CC[C@@H](Cc1ccccc1)C(=O)N[C@H](C(=O)N[C@H](C(N)=O)C(C)C)C(C)C)NC(=O)[C@@H](NC(=O)[C@@H](N)C(C)C)C(C)C	10 µM	40%
CC(=O)N1C2C3(CO)C(c4ccccc4)C4(CO)C1C1(CO)C(c5ccccc5)C2(CO)C3N(C(C)=O)C41	50 µM	6%
CC(C)(CC(=O)O)CC(=O)N[C@@H](Cc1ccccc1)[C@H](O)C(=O)N1CSC[C@H]1C(=O)NC(C)(C)C	5 µM	50%
NC(=O)C[C@H](N)C(=O)N[C@@H](Cc1ccccc1)[C@@H](O)C(=O)NCC1CCCCC1	1000 µM	7.9%
O=C(Cc1ccccc1)N1C2C3(CO)C(c4ccccc4)C4(CO)C1C1(CO)C(c5ccccc5)C2(CO)C3N(C(=O)Cc2ccccc2)C41	50 µM	52%
CC[C@H](C)C(NC(=O)CNCC(O)[C@H](Cc1ccccc1)NC(=O)OCc1ccccc1)C(=O)N[C@@H](Cc1ccccc1)C(=O)OC	10 µM	14%
CNC(=O)[C@@H](NC(=O)[C@H](Cc1ccccc1)CS(=O)C[C@@H](Cc1ccccc1)C(=O)N[C@H](C(=O)NC)C(C)C)C(C)C	10 µM	90%
CC[C@H](C)[C@@H](C(=O)N[C@H](C(N)=O)C(C)C)N(C)C(=O)[C@@H]1CCCN1C(=O)[C@@H](O)[C@H](Cc1ccccc1)NC(=O)[C@H](CC(N)=O)NC(=O)CCc1ccccc1	5 µM	7.1%
CC(C)C[C@@H](CC[C@@H](Cc1ccccc1)C(=O)N[C@H](C(=O)N[C@H](C(N)=O)C(C)C)C(C)C)NC(=O)[C@@H](NC(=O)[C@@H](NC(=O)OC(C)(C)C)C(C)C)C(C)C	10 µM	29%
CSC[C@H](NC(=O)COc1cccc2cccnc12)C(=O)N[C@@H](Cc1ccccc1)[C@H](O)C(=O)N1CSC(C)(C)[C@H]1C(=O)NC(C)(C)C	0.05 µM	90.5%
COC(=O)N1C2C3(CO)C(c4ccc(OC)cc4)C4(CO)C1C1(CO)C(c5ccc(OC)cc5)C2(CO)C3N(C(=O)OC)C41	50 µM	9%